Results reported in US7902327B2, “Dendrimeric peptides, pharmaceutical compositions and methods of using the same” (New York University School of Medicine, priority 2007, dated 2011).
Where a SMILES comes first, the peptide text is derived from it. Side-chain parts run from the residue outwards. [ ]: non-standard residue; d: D form. The star is where a group is joined. Lys(α,ε-(ArgTrp)2) = N=C(N)NCCC[C@H](N)C(=O)N[C@@H](Cc1c[nH]c2ccccc12)C(=O)NCCCC[C@H](NC(=O)[C@H](Cc1c[nH]c2ccccc12)NC(=O)[C@@H](N)CCCNC(=N)N)C(=O)*; βAla = NCCC(=O)O

System: B. anthracis (32F2 Sterne)
Details: hemolytic index HD50/MIC50

Structure (SMILES)	HI B. anthracis
CC[C@H](C)[C@H](N)C(=O)N[C@@H](CC(C)C)C(=O)N1CCC[C@H]1C(=O)N[C@@H](Cc1c[nH]c2ccccc12)C(=O)N[C@@H](CCCCN)C(=O)N[C@@H](Cc1c[nH]c2ccccc12)C(=O)N1CCC[C@H]1C(=O)N[C@@H](Cc1c[nH]c2ccccc12)C(=O)N[C@@H](Cc1c[nH]c2ccccc12)C(=O)N1CCC[C@H]1C(=O)N[C@@H](Cc1c[nH]c2ccccc12)C(=O)N[C@@H](CCCNC(=N)N)C(=O)N[C@@H](CCCNC(=N)N)C(N)=O [Indolicidin, reference compound]	35.7
N=C(N)NCCC[C@H](N)C(=O)N[C@@H](Cc1c[nH]c2ccccc12)C(=O)NCCCC[C@H](NC(=O)[C@H](Cc1c[nH]c2ccccc12)NC(=O)[C@@H](N)CCCNC(=N)N)C(=O)NCCCC[C@H](NC(=O)[C@H](CCCCNC(=O)[C@H](Cc1c[nH]c2ccccc12)NC(=O)[C@@H](N)CCCNC(=N)N)NC(=O)[C@H](Cc1c[nH]c2ccccc12)NC(=O)[C@@H](N)CCCNC(=N)N)C(=O)NCCC(N)=O [Den(RW)4D] (H-RWK([Trp-Arg])K(Lys(α,ε-(ArgTrp)2))[βAla]-NH2)	105
